Results deposited as PubChem BioAssay AID1259414 (Drosophila RNAi Screening Center, 2018)

Assay: 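Fly genes that alter Wolbachia amount inside host cells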 (primary screen)
Cells: Drosophila JW18 cells infected with Wolbachia
Knock-down reagent: long dsRNA against Drosophila genes, 0.25 µg dsRNA per well of a 384-well plate
Timing: 5 days
Challenge: cells persistently infected with Wolbachia before knock-down; no added drug
Detection: 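Imaged fluorescence in situ signal for Wolbachia 23S rRNA per DAPI-counted host cell, given as a robust z-score within each plate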
Direction: Wolbachia per cell robust z: higher = more Wolbachia per host cell than the plate typical
Call rule: 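Hit when robust z is 1.5 or more, or -1.5 or less, in at least two of three replicates; excludes dsRNAs with several or no targets, genes not expressed in JW18 and well A1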
The screen tested about 24,000 reagents; shown is a random part of those with a known target gene and a result. In the full data, about 1,210 (5%) were called active. 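Inactive calls also include excluded dsRNAs with several or no targets, genes unexpressed in JW18, and well A1, regardless of score.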 Unmarked entries are inactive. Reagents against one gene are numbered here. A plus sign joins genes that one reagent is predicted to hit.

gene | reagent no. | Wolbachia per cell robust z, rep 1 | Wolbachia per cell robust z, rep 2 | Wolbachia per cell robust z, rep 3
Pym | 1 | 0.261 | 0.353 | -3.46
srp | 1 | -0.626 | -0.765 | -0.19
srp | 2 | -0.255 | -1.23 | -4.93
stumps | 1 | 0.391 | 2.29 | 0.226
stumps | 2 | -5.31 (active) | 0.192 | -3.87
stumps | 3 | -0.693 | -1.02 | -0.845
CG13869 + CG11099 | 1 | 0.46 | -1.93 | 0.832
SIFaR | 1 | 0.0604 | 0.306 | 0.448
SIFaR | 2 | 0.803 | 1.25 | 0.763
CG42470 | 1 | 1.22 | -0.371 | -0.695
RpL35 | 1 | 2.51 (active) | 2.98 | 2.67
CG8746 | 1 | 0.479 | 0.641 | 0.0657
f-cup | 1 | -1.2 | 1.1 | -0.676
f-cup | 2 | 1.2 | 2.17 | 1.11
CG1074 | 1 | -2.86 | 0.195 | 1.07
CG1074 | 2 | -0.692 | 0.0261 | 0.162
Mrtf | 1 | 2.3 (active) | -0.521 | 1.96
Mrtf | 2 | 0.0366 | 0.406 | 0.771
Mrtf | 3 | 1.34 | 2.4 | 1.08
CG12991 | 1 | -0.0332 | -2.45 | 0.509
CG12991 | 2 | -0.824 | -1.73 | -1.49
narya | 1 | -0.101 | 0.163 | -7.26
CG4935 | 1 | 0.0225 | 0.575 | 0.982
RhoU | 1 | 0.537 | -0.11 | 0.0154
RhoU | 2 | 0.0303 | -0.504 | -0.111
RhoU | 3 | 0.623 | 1.24 | 0.321
RhoU | 4 | -0.332 | 0.884 | 0.319
RhoU | 5 | -0.688 | 0.33 | -2.19
RhoU | 6 | 0.567 | 0.739 | 0.318
